Laboratory results: publication PMC7673538 (PLoS Biology, 2020)

Amino acid sequences for entries named in this document (tags omitted). Residues count along the entry.
UniProt P03313, 1216-1429: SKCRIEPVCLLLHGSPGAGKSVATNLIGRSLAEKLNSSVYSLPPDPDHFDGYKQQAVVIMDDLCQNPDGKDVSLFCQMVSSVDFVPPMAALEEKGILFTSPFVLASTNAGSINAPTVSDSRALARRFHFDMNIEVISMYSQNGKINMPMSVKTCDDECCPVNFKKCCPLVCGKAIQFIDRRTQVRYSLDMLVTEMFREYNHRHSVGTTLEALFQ

Molecular target: CV-B3 2C protein (Coxsackievirus B3, UniProt P03313)
Assay type: binding

BF738735
delta TM, Average: 0.4933
